Measured values from several laboratories, pooled; numbers as filed in NIAID ChemDB.

All rows: tests in culture; organism: Aspergillus flavus; measure: MIC

Blank or dashed fields: not listed here.

compound,strain or isolate,method,value
CCOC(=O)C1/C(=N/Nc2ccc([N+](=O)[O-])cc2[N+](=O)[O-])C=C(c2ccc3ccccc3c2)CC1c1ccc(Br)cc1,Clinical isolates,,6.25 µg/mL
CC(=Nc1cccc2cccc(N=C(C)c3c(O)ccc4c(C)cc(=O)oc34)c12)c1c(O)ccc2c(C)cc(=O)oc12,MTCC 1883,,10 µg/mL
COC(=O)Cc1csc(NC(=O)Cc2ccc(C)cc2)n1,NCIM 524,,6.25 µg/mL
CCOC(=O)C1/C(=N/Nc2ccc([N+](=O)[O-])cc2[N+](=O)[O-])C=C(c2ccc3ccccc3c2)CC1c1ccccc1,Clinical isolates,,200 µg/mL
C[C@H]1[C@H](O)[C@@H](C)/C=C/C=C/C=C/C=C/C=C/C=C/C=C/[C@H](O[C@@H]2O[C@H](C)[C@@H](O)[C@H](N)[C@@H]2O)C[C@@H]2O[C@](O)(C[C@@H](O)C[C@@H](O)CC[C@H](O)[C@@H](O)C[C@@H](O)CC(=O)O[C@H]1C)C[C@H](O)[C@H]2C(=O)O,,agar diffusion,22 µg/mL
C[C@H]1[C@H](O)[C@@H](C)/C=C/C=C/C=C/C=C/C=C/C=C/C=C/[C@H](O[C@@H]2O[C@H](C)[C@@H](O)[C@H](N)[C@@H]2O)C[C@@H]2O[C@](O)(C[C@@H](O)C[C@@H](O)CC[C@H](O)[C@@H](O)C[C@@H](O)CC(=O)O[C@H]1C)C[C@H](O)[C@H]2C(=O)O,22546,broth dilution,0.25 µg/mL
COC(=O)c1c(N)oc2c(C)c(C)c(O)c(Sc3cccc(C)c3)c12,KCCM 11899,broth dilution,25 µg/mL
Cc1cc2ncn(CC(O)COc3cc(OCC(O)Cn4cnc5cc(C)c(C)cc54)c4c(C)cc(=O)oc4c3)c2cc1C,,,64 µg/mL
COc1ccc(C2=NN(Cc3n[nH]c(=S)n3-c3ccc(Br)cc3)C(=O)CC2)cc1,,,13 µg/mL
CC(=O)N1CCC(n2cc(-c3nc(-c4ccc(Cl)cc4)n[nH]3)nn2)CC1,,agar,50 µg/mL
Cc1cc(=O)oc2cc(OCC(O)Cn3cnc4ccccc43)cc(OCC(O)Cn3cnc4ccccc43)c12,,,512 µg/mL
Nc1[nH]c(=O)ncc1F,KCCM 11899,broth dilution,25 µg/mL
CCCC[C@@H](C)/C=C(C)/C=C(\C)C(=O)N/C(=C/[C@@](C)(O)/C=C/C=C/C=C/C(=O)NC1=C(O)CCC1=O)C(=O)[C@@H]1CO1,1,broth dilution,200 µM
C[C@@H](c1ncncc1F)[C@](O)(Cn1cncn1)c1ccc(F)cc1F,IAM 13835,,0.39 µg/mL
C[C@H]1[C@H](O)[C@@H](C)/C=C/C=C/C=C/C=C/C=C/C=C/C=C/[C@H](O[C@@H]2O[C@H](C)[C@@H](O)[C@H](N)[C@@H]2O)C[C@@H]2O[C@](O)(C[C@@H](O)C[C@@H](O)CC[C@H](O)[C@@H](O)C[C@@H](O)CC(=O)O[C@H]1C)C[C@H](O)[C@H]2C(=O)O,,broth dilution / agar,20 µg/mL
C[C@H]1[C@H](O)[C@@H](C)/C=C/C=C/C=C/C=C/C=C/C=C/C=C/[C@H](O[C@@H]2O[C@H](C)[C@@H](O)[C@H](N)[C@@H]2O)C[C@@H]2O[C@](O)(C[C@@H](O)C[C@@H](O)CC[C@H](O)[C@@H](O)C[C@@H](O)CC(=O)O[C@H]1C)C[C@H](O)[C@H]2C(=O)O,ATCC 11496,absorbance,2 µg/mL
CCN1CCC(n2cc(-c3nc(-c4ccccc4)n[nH]3)nn2)CC1,,agar,40 µg/mL
CC(C)S(=O)(=O)N1CCN(c2cnn(-c3cc(F)cc(F)c3)c(=O)c2OC2CCC(F)C2)CC1,ND83,broth dilution,0.125 µg/mL
COC(=O)Cc1csc(NC(=O)Cc2cccc(C)c2)n1,NCIM 524,,12.5 µg/mL
O=C1CCC(c2ccc(Br)cc2)=NN1Cc1n[nH]c(=S)n1-c1ccc(Cl)cc1,,,8 µg/mL
O=C(c1ccccc1)N1CCC(n2cc(-c3nc(-c4ccccc4)n[nH]3)nn2)CC1,,agar,160 µg/mL
CCC(C)CC(C)CCCCCCCCC(=O)N[C@H]1C[C@@H](O)[C@H](NCCN)NC(=O)[C@@H]2[C@@H](O)CCN2C(=O)[C@H]([C@H](O)CCN)NC(=O)[C@H]([C@H](O)[C@@H](O)c2ccc(O)cc2)NC(=O)[C@@H]2C[C@@H](O)CN2C(=O)[C@H]([C@@H](C)O)NC1=O,ND83,broth dilution,0.06 µg/mL
O=C1CCC(c2ccccc2)=NN1Cc1n[nH]c(=S)n1-c1ccccc1,,,5 µg/mL
CCOC(=O)C1/C(=N/Nc2ccc([N+](=O)[O-])cc2[N+](=O)[O-])C=C(c2ccc3ccccc3c2)CC1c1ccc(C)cc1,Clinical isolates,,25 µg/mL
CC(C)(C)OC(=O)N1CCC(n2cc(-c3nc(-c4ccccc4)n[nH]3)nn2)CC1,,agar,120 µg/mL
O=C1CCC(c2ccc(Cl)cc2)=NN1Cc1n[nH]c(=S)n1-c1ccc(Cl)cc1,,,4 µg/mL
Cc1cccc(CC(=O)Nc2nc(-c3cccc(F)c3)cs2)c1,NCIM 524,,12.5 µg/mL
C[C@@H](c1ncncc1F)[C@](O)(Cn1cncn1)c1ccc(F)cc1F,CBS 625.66,broth dilution,0.5 µg/mL
O=C1CCC(c2ccc(Br)cc2)=NN1Cc1n[nH]c(=S)n1-c1ccccc1,,,10 µg/mL
Cc1ccc(OCC(=O)Nc2nc(-c3cccc(Cl)c3)cs2)cc1C,NCIM 524,,12.5 µg/mL
CC(=O)N1CCC(n2cc(CN3CCc4sccc4C3)nn2)CC1,NCIM 539,agar,>200 µg/mL
Cc1ccc(CC(=O)Nc2nc(-c3cccc(Cl)c3)cs2)cc1,NCIM 524,,6.25 µg/mL
Cc1ccc(C2=NN(Cc3n[nH]c(=S)n3-c3ccc(Cl)cc3)C(=O)CC2)cc1,,,7 µg/mL
Cc1ccc(CC(=O)Nc2nc(C)cs2)cc1,NCIM 902,,12.5 µg/mL
CCOC(=O)c1c(N)oc2c(C)cc(O)c(C)c12,KCCM 11899,broth dilution,25 µg/mL
CS(=O)(=O)N1CCC(n2cc(-c3nc(-c4ccc([N+](=O)[O-])cc4)n[nH]3)nn2)CC1,,agar,40 µg/mL
Cc1cccc(CC(=O)Nc2nc(C)cs2)c1,NCIM 524,,12.5 µg/mL

Repeating the first 4 entries:

compound | strain or isolate | method | value
CCOC(=O)C1/C(=N/Nc2ccc([N+](=O)[O-])cc2[N+](=O)[O-])C=C(c2ccc3ccccc3c2)CC1c1ccc(Br)cc1 | Clinical isolates |  | 6.25 µg/mL
CC(=Nc1cccc2cccc(N=C(C)c3c(O)ccc4c(C)cc(=O)oc34)c12)c1c(O)ccc2c(C)cc(=O)oc12 | MTCC 1883 |  | 10 µg/mL
COC(=O)Cc1csc(NC(=O)Cc2ccc(C)cc2)n1 | NCIM 524 |  | 6.25 µg/mL
CCOC(=O)C1/C(=N/Nc2ccc([N+](=O)[O-])cc2[N+](=O)[O-])C=C(c2ccc3ccccc3c2)CC1c1ccccc1 | Clinical isolates |  | 200 µg/mL

Neighbouring rows are from separate reports.